Assay results taken from patent publication US11730723B2, “Compounds and methods for treating viral infections” (priority 2020, dated 2023).

Tested on: HBV wild-type strain ayw1
Assay: Primary anti-HBV assay in HepG2 2.2.15 cells (qPCR of HBV DNA)
Conditions: for SI50: CC50/EC50; for SI90: selectivity index at EC90

| SMILES | SI50 | SI90 |
| --- | --- | --- |
| C=C1[C@H](CO)[C@@H](O)C[C@@H]1n1cnc2c(=O)[nH]c(N)nc21 [Entecavir] | >2,273 | 1 |
| CC(C)C[C@](C)(N)COc1ccc(-c2ccnc(C(F)F)c2)nc1C(F)F [Compound 1, (S)-1-((2′,6-bis(difluoromethyl)-[2,4′-bipyridin]-5-yl)oxy)-2,4-dimethylpentan-2-amine] | 5 | <1 |
